Measurements: ChEMBL document CHEMBL4651402, “Screening of ~5500 FDA-approved drugs and clinical candidates for anti-SARS-CoV-2 activity” (2021)

Test system: SARS-CoV-2
Assay: microbe, parasite or virus in culture
Conditions: Severe acute respiratory syndrome coronavirus 2, Vero C1008, 48 h; for IC50: read-out: pIC50 (converted)

COc1ccc(CC(C)NCC(O)c2ccc(O)c(NC=O)c2)cc1 (centres undefined) [FORMOTEROL]
pIC50: < 4.70
IC50: > 20 µM

CC(Cc1ccc(O)cc1)NCC(O)c1cc(O)cc(O)c1 (centres undefined) [FENOTEROL]
pIC50: < 4.70
IC50: > 20 µM

pIC50: −log10 of the molar value.
